PubChem BioAssay AID1259414 | Drosophila RNAi Screening Center | 2018

Screen: 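Host factors increasing or decreasing Wolbachia levels in cultured fly cells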 (primary screen)
System: Drosophila JW18 cells infected with Wolbachia
Reagent: long dsRNA against Drosophila genes, 0.25 µg dsRNA per well of a 384-well plate
Timing: 5 days
Conditions: cells persistently infected with Wolbachia before knock-down; no added drug
Read-out: 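Automated imaging of bacterial rRNA staining divided by host cell count, reported as plate-normalised robust z-score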
Reading the numbers: Wolbachia per cell robust z: higher = more Wolbachia per host cell than the plate typical
Rule for the call: 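Hit when robust z is 1.5 or more, or -1.5 or less, in at least two of three replicates; excludes dsRNAs with several or no targets, genes not expressed in JW18 and well A1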
The screen tested about 24,000 reagents; below is a random part of those that have a named target and a result. Of all reagents, about 1,210 (5%) got an active call. 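Inactive calls also include excluded dsRNAs with several or no targets, genes unexpressed in JW18, and well A1, regardless of score.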 Names joined by + are all predicted targets of the reagent.

no.	Target gene	dsRNA	Wolbachia per cell robust z, rep 1	Wolbachia per cell robust z, rep 2	Wolbachia per cell robust z, rep 3	Call
1	CG15572	DRSC24999	1.18	-7.86	0.525	inactive
2	Sld5	DRSC14892	-0.0307	-0.635	-0.263	inactive
3	Sld5	DRSC41448	-2.38	-2.53	-0.981	active
4	Sr-CII (Scavenger receptor class C, type II)	DRSC07557	-1.34	-4.87	0.101	inactive
5	Sr-CII (Scavenger receptor class C, type II)	DRSC25606	1.23	-0.069	0.0283	inactive
6	CG7133	DRSC11798	-0.341	-5.19	0.786	inactive
7	Pgm2b (Phosphoglucomutase 2b)	DRSC05978	1.26	0.236	-0.839	inactive
8	Pgm2b (Phosphoglucomutase 2b)	DRSC26452	0.0726	0.16	-0.784	inactive
9	wol (wollknaeuel)	DRSC03077	1.25	-0.187	0.0216	inactive
10	wol (wollknaeuel)	DRSC27227	-0.0827	-0.926	0.551	inactive
11	S2P (site-2 protease)	DRSC07311	0.191	0.308	0.746	inactive
12	S2P (site-2 protease)	DRSC27864	1.18	0.0323	-1.37	inactive
13	upSET	DRSC23289	-2.19	-0.12	-0.295	inactive
14	Vps39 (Vacuolar protein sorting 39)	DRSC16205	-3.2	-0.607	-0.997	inactive
15	CG12420	DRSC14514	0.301	-0.0358	-1.84	inactive
16	Lip3 (Lipase 3)	DRSC16727	-0.0113	0.375	1.11	inactive
17	Lip3 (Lipase 3)	DRSC29354	-0.456	0.368	-0.681	inactive
18	glo (glorund)	DRSC16145	0.354	0.808	1.9	inactive
19	glo (glorund)	DRSC27807	-1.02	1.38	1.02	inactive
20	Cals (Calsyntenin)	DRSC17196	-0.982	0.917	-0.814	inactive
21	Cals (Calsyntenin)	DRSC21661	-1.69	0.269	-1.77	active
22	tplus3a + tplus3b	DRSC03687	-0.0506	-1.23	-1.67	inactive
23	tplus3a + tplus3b	DRSC26400	0.743	1.37	0.442	inactive
24	RpL13A (Ribosomal protein L13A)	DRSC12265	1.87	3.19	1.92	active
25	RpL13A (Ribosomal protein L13A)	DRSC27297	1.91	-2.61	-0.21	inactive

Look-ups from above:
For “Wolbachia per cell robust z, rep 2”, glo (glorund) [DRSC16145] has 0.808
Under “Wolbachia per cell robust z, rep 2”, Sld5 [DRSC41448] has -2.53
For “Wolbachia per cell robust z, rep 3”, CG12420 [DRSC14514] shows -1.84
CG7133 [DRSC11798], Wolbachia per cell robust z, rep 1 = -0.341
wol (wollknaeuel) [DRSC03077], Call: inactive
For “Wolbachia per cell robust z, rep 2”, Vps39 (Vacuolar protein sorting 39) [DRSC16205] reads -0.607

Continued.
no.	Target gene	dsRNA	Wolbachia per cell robust z, rep 1	Wolbachia per cell robust z, rep 2	Wolbachia per cell robust z, rep 3	Call
26	CG12116	DRSC17812	-0.0391	-1.71	-0.421	inactive
27	CG31055	DRSC13832	-0.146	0.452	-0.685	inactive
28	Muc68D (Mucin 68D)	DRSC10569	-0.0312	0.428	0.177	inactive
29	eIF3j (eukaryotic translation initiation factor 3 subunit j)	DRSC06107	-0.883	0.382	0.433	inactive
30	CG13640	DRSC14639	0.246	0.216	0.0226	inactive
31	Catsup (Catecholamines up)	DRSC03288	0.394	-0.652	-0.48	inactive
32	Catsup (Catecholamines up)	DRSC25727	-0.0709	0.327	0.0658	inactive
33	CG18048	DRSC12573	-1.65	-0.231	-1.29	inactive
34	CG18048	DRSC29053	-0.959	-0.277	-0.243	inactive
35	CG10863	DRSC08145	-0.0537	-0.231	-0.0666	inactive
36	CG13218	DRSC06340	0.000792	-0.113	0.253	inactive
37	CG13218	DRSC26951	-0.931	-1.05	0.373	inactive
38	CG10375	DRSC28520	0.876	0.253	0.815	inactive
39	salt (salty dog)	DRSC15427	-0.614	-0.748	-4.02	inactive
40	salt (salty dog)	DRSC25514	1.48	0.649	-0.618	inactive
41	Hr51 (Hormone receptor 51)	DRSC06627	-1.79	-0.0846	-0.00145	inactive
42	Hr51 (Hormone receptor 51)	DRSC22829	0.0996	0.423	-1.37	inactive
43	Elovl7 (ELOVL fatty acid elongase 7)	DRSC15452	0.519	-0.189	-7.59	inactive
44	Elovl7 (ELOVL fatty acid elongase 7)	DRSC21570	0.202	0.024	-0.911	inactive
45	Elovl7 (ELOVL fatty acid elongase 7)	DRSC25259	1.66	-0.945	3.13	inactive
46	CG14537	DRSC02395	-8.5	-0.526	-0.231	inactive
47	Hsp110 (Heat shock protein 110)	DRSC11186	0.853	0.794	0.957	inactive
48	Hsp110 (Heat shock protein 110)	DRSC26538	-4.04	-1.82	-1.29	active
49	Nnf1b	DRSC22080	0.618	0.593	0.134	inactive
50	Nnf1b	DRSC25920	-0.125	1.21	0.648	inactive
51	CG10973	DRSC09813	-0.379	1.31	0.37	inactive
52	Vha100-5 (Vacuolar H[+] ATPase 100kD subunit 5)	DRSC02175	-1.51	-3.93	-0.384	inactive
53	Vha100-5 (Vacuolar H[+] ATPase 100kD subunit 5)	DRSC26439	-0.179	1.65	-0.369	inactive
54	CG13585	DRSC04221	-2.65	-1.49	-1.51	active
55	CG9294	DRSC04537	-1.6	-0.663	-0.978	inactive
56	CG11018	DRSC06024	1.45	0.887	0.61	inactive
57	CG11018	DRSC28771	-1.38	1.39	0.149	inactive
58	hyx (hyrax)	DRSC14462	0.691	0.905	-2.23	inactive
59	CG10508	DRSC11612	1.13	0.204	0.377	inactive
60	CG10508	DRSC11613	0.0898	-0.161	0.366	inactive
61	CG7546	DRSC08885	0.0556	0.161	-0.982	inactive
62	CG7546	DRSC10871	-2.76	-0.811	-2.33	inactive
63	CG7546	DRSC22148	-0.103	0.42	-0.404	inactive
64	CG34203	DRSC38897	-1.68	-1.58	0.299	inactive
65	mdu (meduse)	DRSC23192	-2.93	1.26	0.593	inactive
66	mdu (meduse)	DRSC28604	-1.77	-0.347	0.456	inactive
67	CG33958	DRSC06472	-1.53	-2.24	-0.304	inactive
68	CG33958	DRSC06944	0.65	-0.205	0.37	inactive
69	CG33958	DRSC29635	0.64	0.454	0.624	inactive
